Assay results reported in PMC8201785, “Sequence-Signature Optimization Enables Improved Identification of Human HV6-1-Derived Class Antibodies That Neutralize Diverse Influenza A Viruses” (2021).

Biological target: H3N2 hemagglutinin (A/Victoria/361/2011) HA trimer (influenza A virus A/Victoria/361/2011 (H3N2))
Experiment: cryo-EM structure

Substance: H3N2 hemagglutinin (A/Victoria/361/2011) HA trimer (natural protein)
- stoichiometry N: 3
